{"source": "PubChem BioAssay AID624099 (ICCB-Longwood, 2012)", "assay": "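Knock-downs relieving repression by E2 of an HPV18 LCR luciferase reporter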 (primary screen)", "cells": "human C33A cervical carcinoma cells (HPV-negative) stably expressing BPV1 E2 and an HPV18 LCR luciferase reporter", "reagent": "siRNA pool against human genes, 40 nM", "duration": "72 h", "detection": "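HPV18 LCR reporter light per well, converted to plate-wise z-scores that exclude control wells, and averaged over triplicate plates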", "scale": "mean z-score and z-score: higher = stronger reporter signal, weaker E2 silencing", "rule for the call": "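Mean z ≥ 2 together with z ≥ 2 in two or more of the three replicates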", "note": "This is a random part of about 21,000 reagents tested. Over the whole deposit, 497 (2.4%) were called active. 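Higher z means weaker E2 silencing; only reporter increases were scored, and knock-downs that hurt cell survival may mask genuine repressor factors.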 A number with no mark means an inactive call."}
{"Gene": "KIF13B", "mean z-score": 0.52, "z-score, replicate A": 0.51, "z-score, replicate B": 0.41, "z-score, replicate C": 0.66}
{"Gene": "TSN", "mean z-score": -0.81, "z-score, replicate A": -0.74, "z-score, replicate B": -0.79, "z-score, replicate C": -0.89}
{"Gene": "SPP2", "mean z-score": 0.07, "z-score, replicate A": 0.18, "z-score, replicate B": 0.25, "z-score, replicate C": -0.23}
{"Gene": "GALR3", "mean z-score": -1.87, "z-score, replicate A": -2.03, "z-score, replicate B": -1.87, "z-score, replicate C": -1.7}
{"Gene": "UQCRB", "mean z-score": 0.12, "z-score, replicate A": 0.24, "z-score, replicate B": -0.19, "z-score, replicate C": 0.31}
{"Gene": "RFXANK", "mean z-score": 0.59, "z-score, replicate A": 0.42, "z-score, replicate B": 0.5, "z-score, replicate C": 0.86}
{"Gene": "ALKBH1", "mean z-score": -0.46, "z-score, replicate A": -0.52, "z-score, replicate B": -0.38, "z-score, replicate C": -0.49}
{"Gene": "HLA-DMA", "mean z-score": 0.07, "z-score, replicate A": 0.03, "z-score, replicate B": -0.02, "z-score, replicate C": 0.19}

Single entries from above.
Under “z-score, replicate C”, RFXANK reads 0.86
KIF13B, z-score, replicate B = 0.41

Further reagents follow.
{"Gene": "PFAS", "mean z-score": 0.58, "z-score, replicate A": 0.69, "z-score, replicate B": 0.7, "z-score, replicate C": 0.34}
{"Gene": "PCBP2P2", "mean z-score": 0.07, "z-score, replicate A": 0.02, "z-score, replicate B": 0.18, "z-score, replicate C": 0.01}
{"Gene": "CSNK1G2-AS1", "mean z-score": -0.67, "z-score, replicate A": -0.46, "z-score, replicate B": -0.51, "z-score, replicate C": -1.05}
{"Gene": "KRTAP23-1", "mean z-score": -0.11, "z-score, replicate A": -0.04, "z-score, replicate B": 0.07, "z-score, replicate C": -0.37}
